Compound potency records, mixed from different reports. Data source: NIAID ChemDB in PubChem.

All rows: whole-cell or culture tests; species: Human cytomegalovirus; method: cytopathic effect; read-out: EC50

Lines come from different laboratories, so protocols vary. An empty or dashed field is not shown. ECn is the concentration giving n% inhibition of infection, replication or growth.

compound | strain or isolate | cell line | value
C=C(/C=C/P(=O)(O)O)Cn1cnc2c(=O)[nH]c(N)nc21 | AD169 | MRC-5 | >250 µM
O=C1c2ccccc2C(=O)c2c1cc(S(=O)(=O)O)c(O)c2O | AD169 | HFF | >100 µM
CC1=C(C)[C@](CO)(c2ccccc2)C[C@H]1n1cnc2c(N)ncnc21 | AD169 | HEL 299 | >100 µg/mL
NC1=Nc2c(ncn2CCCCCP(=O)(O)O)C(=O)C1 |  | MRC-5 | >250 µM
O=c1ccn([C@@H]2O[C@@H](CO)[C@H](O)[C@H]2O)c(=O)[nH]1 | AD169 | MRC-5 | >1000 µM
Cc1ccc(Nc2ccc(Nc3ccc(C)cc3S(=O)(=O)[O-])c3c2C(=O)c2c(O)ccc(O)c2C3=O)c(S(=O)(=O)[O-])c1.[Na+].[Na+] | AD169 | HFF | 50 µM
Nc1nccc2c1ncn2C(C=O)OC(C=O)CO | AD-169 (100 PFU) | HEL | 6.25 µg/mL
Nc1nc2c(ncn2[C@@H]2O[C@@H](CO)[C@H](O)[C@H]2O)c(=O)[nH]1 | AD169 | MRC-5 | >1000 µM
CC(=O)Oc1ccc([C@@H]2CC(=O)c3c(cc(OC(C)=O)c(-c4c(OC(C)=O)cc5c(c4OC(C)=O)C(=O)C[C@@H](c4ccc(OC(C)=O)cc4)O5)c3OC(C)=O)O2)cc1 | AD169 | HFF | >4 µg/mL
CC1=C(C)C(CO)(CO)C[C@H]1n1cnc2c(N)ncnc21 | AD169 | HEL 299 | 30.1 µg/mL
Nc1nc2c(ncn2[C@H]2C[C@@H](O)[C@H](CO)O2)c(=O)[nH]1 | AD169 | MRC-5 | >1000 µM
Nc1ncnc2c1ncn2[C@@H]1C[C@H](CO)[C@@H](O)[C@H]1O | DAVIS (100 PFU) | HEL | >100 µg/mL
C/C(=N\NC(=S)NNC(=S)c1ccc(Cl)cc1)C12CC3CC(CC(C3)C1)C2 | AD169 | HEL | >5 µg/mL
Nc1nc(Cl)nc2c1ncn2/C=C1\CC1CO | AD169 | HFF | 231 µM
Nc1c(S(=O)(=O)O)cc(Nc2ccccc2)c2c1C(=O)c1ccccc1C2=O | AD169 | HFF | 40 µM
COC(=O)C(C)NOP(OC[C@H]1C/C1=C/n1cnc2c(N)[nH]c(=O)nc21)Oc1ccccc1 | AD169 | HFF | >40.9 µM
Cc1cc(O)cc(O)c1CC(=O)O | AD169 | HEL | >25 µg/mL
Nc1ncnc2c1ncn2[C@@H]1C=C(CO)[C@@H](O)[C@H]1O | DAVIS (100 PFU) | HEL | 0.3 µg/mL
Nc1nc2c(ncn2COC(CO)CO)c(=O)[nH]1 | TOWNE | HFF | 3.4 µM
O=C(O)Cc1ccc(O)c(O)c1 | DAVIS | HEL | 2.5 µg/mL
NC1=Nc2c(ncn2CCC/C=C/P(=O)(O)O)C(=O)C1 |  | MRC-5 | 48 µM
Cc1cn([C@H]2C[C@@H](O)[C@H](CO)O2)c(=O)[nH]c1=O | AD169 | MRC-5 | >1000 µM
C[C@H]1C[C@@H](n2cnc3c(N)ncnc32)[C@H](O)[C@@H]1O | DAVIS (100 PFU) | HEL | >100 µg/mL
Nc1ncnc2ncn(COCCCl)c12 | AD169 | VERO | >128 µg/mL
O=C(O)c1cc(O)ccc1O | AD169 | HEL | 8 µg/mL
Nc1ncnc2c1ncn2C[C@H](O)CO | AD-169 (100 PFU) | HEL | >100 µg/mL
CCCCCNc1ccc(NCCCCC)c2c1C(=O)c1ccccc1C2=O | AD169 | HFF | >260 µM
O=C(O)c1cc(O)c(O)c(O)c1 | DAVIS | HEL | 7 µg/mL
C[C@H](O)C1=C[C@@H](n2cnc3c(N)ncnc32)[C@H](O)[C@@H]1O | AD-169 (100 PFU) | HEL | >100 µg/mL
O=C(O)CN(CC(=O)O)Cc1cc2c(c(O)c1O)C(=O)c1ccccc1C2=O | AD169 | HFF | >100 µM

A second listing of 2 rows from above:

compound | strain or isolate | cell line | value
Nc1c(S(=O)(=O)O)cc(Nc2ccccc2)c2c1C(=O)c1ccccc1C2=O | AD169 | HFF | 40 µM
O=C1c2ccccc2C(=O)c2c1cc(S(=O)(=O)O)c(O)c2O | AD169 | HFF | >100 µM